Results of unrelated studies side by side (data: NIAID ChemDB).

Shared fields: toxicity to cultured cells; cell line: VERO; read-out: CC50

Rows are shuffled and stem from different studies. An empty or dashed field is not shown. CCn: concentration that lowers growth or viability of the cells by n%.

compound | method | value
OC(C1CCCCN1)C1CC(c2ccccc2)Nc2c(Cl)cc(Cl)cc21 | - | 3.4 µg/mL
CCn1cc(C(N)=O)c(=O)c2ccc(-n3ccnc3)cc21 | - | >50 µg/mL
CC(=O)OCc1cc(=O)n(C)c2c3c4c(cc12)c(C)cc(=O)n4CO3 | - | 1.7 µg/mL
CO[C@H]1/C=C/O[C@@]2(C)Oc3c(C)c(O)c4c(O)c(c(/C=N/N5CCN(C)CC5)c(O)c4c3C2=O)NC(=O)/C(C)=C\C=C\[C@H](C)[C@H](O)[C@@H](C)[C@@H](O)[C@@H](C)[C@H](OC(C)=O)[C@@H]1C | luminescence | >100 µM
CNC(=O)c1ccc(NC(=O)Nc2ccc(C3=NCCN3)cc2)cc1NC(=O)Nc1cccc(C2=NCCN2)c1 | - | 38 µg/mL
Cc1cccc(C)c1Nc1nc(-c2ccccc2)cs1 | luminescence | >100 µM
O=C(NC(=O)C1N=C(c2ccccc2)c2ccccc2NC1=O)C1CCCC1 | - | 2 µM
Cc1cccc2c1OP(=O)(OC[C@H]1O[C@@H](n3cc(/C=C/Br)c(=O)[nH]c3=O)C[C@@H]1OC(=O)[C@H]1CCCN1)OC2 | - | 90.5 µg/mL
O=C1C(=O)c2c(nc3ccccn23)-c2ccccc21 | - | >62.5 µg/mL
CC(C)(C)c1ccc(C(=O)Nc2nnc(-c3ccccn3)s2)cc1 | luminescence | 83 µM
NC(=O)c1cn(-c2ccc(C(F)(F)F)cc2)c2cc(-c3ccncc3)ccc2c1=O | - | >100 µg/mL
Cc1cccc2c1OP(=O)(OC[C@H]1O[C@@H](n3cc(/C=C/Br)c(=O)[nH]c3=O)C[C@@H]1OC(=O)[C@H](N)CC(C)C)OC2 | - | 72.2 µg/mL
CCn1cc(C(=O)NCCO)c(=O)c2ccc(-c3ccncc3)cc21 | - | >25 µg/mL
CC(C)C(=O)O[C@H]1C[C@H](n2cc(/C=C/Br)c(=O)[nH]c2=O)O[C@@H]1COP1(=O)OCc2ccccc2O1 | - | 38.6 µg/mL
CC(C)(C)OC(=O)N1C[C@H]2C[C@@H]1CC2n1cnc2c(NC3CC3)ncnc21 | MTS | >135 µM
COc1ccccc1CNC1N=C(c2ccccc2)c2ccccc2NC1=O | - | 20 µM
CCn1c(O)c(C(=O)Nc2cccs2)c(=O)n(CC)c1=S | - | 1.7 µg/mL
CC(C)(C)OC(=O)N1[C@H]2CC[C@@H]1C(n1cnc3c(N)ncnc31)C2 | MTS | >151 µM
C[C@]12CC/C(=N/NC(=O)c3ccncc3)C[C@@H]1CC[C@@H]1[C@@H]2CC[C@]2(C)[C@@H](O)CC[C@@H]12 | - | >10 µg/mL
CC(C)(C)c1cccc2c1OP(=O)(OC[C@H]1O[C@@H](n3cc(/C=C/Br)c(=O)[nH]c3=O)C[C@@H]1O)OC2 | - | 36.2 µg/mL
O=C1C(=O)c2nc3ccccc3nc2-c2ccccc21 | - | 0.42 µg/mL
CCn1c(N)c(C(N)=O)c(=O)c2ccc(-c3ccncc3)cc21 | - | >12.5 µg/mL
CC(=O)OCC(=O)Nc1nc(-c2ccccn2)cs1 | luminescence | >100 µM
O=C(NC1N=C(c2ccccc2)c2cc(Cl)ccc2NC1=O)C1CCCCC1 | - | 5 µM
Nc1ncnc2c1[nH]c[n+]2C1C[C@H]2[NH2+][C@@H]1c1ccccc12.O=C([O-])C(F)(F)F.O=C([O-])C(F)(F)F | MTS | >99 µM
O=C(N/N=C/c1ccc(Cl)c(Cl)c1)c1ccncc1 | - | >62.5 µg/mL
ONC(=S)NN=C1/C(=C/c2ccco2)CNC/C1=C\c1ccco1 | MTT | 334 µg/mL
COC(=O)[C@H]1[C@H](O)[C@@H](C)[C@@H](O)[C@](C)(O)/C=C(\C)C2=C3C(=C(C)C(=O)c4c(O)c(c(C)c(OC(C)=O)c43)NC(=O)/C(C)=C/C=C\[C@@H](C)C(O)[C@@H](C)[C@H]1O)OCO2 | - | 65.6 µg/mL
Nc1c(Cl)ncnc1NC1C[C@@H]2CC[C@H]1[NH2+]2.O=C([O-])C(F)(F)F | MTS | >141 µM
NC(=O)c1cn(-c2ccncc2)c2cc(-c3ccncc3)ccc2c1=O | - | >200 µg/mL
CO[C@H]1/C=C/O[C@@]2(C)Oc3c(C)c(OC(C)=O)c4c(c3C2=O)C(=O)C=C(NC(=O)/C(C)=C\C=C\[C@H](C)[C@H](OC(C)=O)[C@@H](C)[C@@H](O)[C@@H](C)[C@H](OC(C)=O)[C@@H]1C)C4=O | - | 1.95 µg/mL
COc1ccc2c3c([nH]c2c1)C(C)=NCC3 | MTT | 11.54 µg/mL
C(=C1/CNC/C(=C\c2ccco2)C1=Nc1ccccc1)/c1ccco1 | MTT | 370 µg/mL
CCN(CC)CCNc1ccc(C)c2sc3ccc(N)cc3c(=O)c12 | - | 1.02 µg/mL
CCn1cc(C(N)=O)c(=O)c2ccc(-c3ccno3)cc21 | - | >12.5 µg/mL
FC(F)(F)c1ccc2c(c1)N(CCCN1CCN(C3CC3)CC1)c1ccccc1S2 | - | 9 µg/mL
O=C(Nc1nc(-c2ccccn2)cs1)c1ccccc1O | luminescence | 11 µM
CN(C)CCCN1c2ccc3ccccc3c2Sc2cccc(Cl)c21 | - | 2.6 µg/mL
C(=C1/CNC/C(=C\c2ccco2)C1=NNc1ccccc1)/c1ccco1 | MTT | 144 µg/mL
CCN(CC)c1ccc2nc3ccc(N(CC)CC)cc3[n+](-c3ccccc3)c2c1.[Cl-] | - | 0.55 µg/mL
O=C(NC1N=C(c2ccccc2)c2ccccc2NC1=O)c1ccccc1[N+](=O)[O-] | - | 2 µM
ON=C1/C(=C/c2ccco2)CNC/C1=C\c1ccco1 | MTT | 82 µg/mL